# Data as given in PubChem BioAssay AID504761 (Drosophila RNAi Screening Center, 2011).
# Purpose: 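Insect host genes that dengue virus relies on to spread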 (primary screen)
# Cell system: D.Mel-2 cells from Drosophila
# Reagent: long dsRNA against Drosophila genes
# Conditions: infection with dengue virus type 2; dose and infection time not stated
# Measured: 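Per well on two replicate plates, imaging gave the percent of cells positive for viral envelope protein, ranked by infection, and a nuclear count of cells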
# Reading the numbers: infection score: higher = more virus-infected cells
# Rule for the call: 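Low infection ranks in the two replicates (chance level up to 0.065) followed by a retest with a 1.5-fold or larger significant decrease, p below 0.05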
# Calls: active = confirmed: knock-down lowers infection; inactive = not picked or not confirmed
# The deposit covers about 22,000 reagents; shown is a random part of those with a known target gene and a result. Of all reagents, 116 (0.52%) are marked active. 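Calls depend on retest data that are not deposited; infection was ranked per plate without normalising between plates; the unit of the infection score is not given.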 Further read-outs or replicates are left out here. Not given: the amount of reagent, the time to read-out.
target,DRSC id,"infection score, replicate 1","infection score, replicate 2",call
AstC-R2 (Allatostatin C receptor 2),DRSC23467,2.88,3.54,inactive
Eig71Ea (Ecdysone-induced gene 71Ea),DRSC11148,0.47,1.83,inactive
lili (lilipod),DRSC14143,5.22,1.35,inactive
lili (lilipod),DRSC29667,,0.25,inactive
CG13438,DRSC06398,3.46,1.59,inactive
nonC (no-on-and-no-off transient C),DRSC18366,31.3,4.09,inactive
nonC (no-on-and-no-off transient C),DRSC18367,4.24,5.63,inactive
Sbat (Sabbat),DRSC00160,5.57,4.73,inactive
Desat1 (Desaturase 1),DRSC16668,8.87,18.1,inactive
Desat1 (Desaturase 1),DRSC23578,0.79,0.64,inactive
CG10171,DRSC09711,5.15,6.97,inactive
CG10171,DRSC26279,1.76,3.24,inactive

Continued (2 carried over from the part before).
target,DRSC id,"infection score, replicate 1","infection score, replicate 2",call
CG10171,DRSC09711,5.15,6.97,inactive
CG10171,DRSC26279,1.76,3.24,inactive
gukh (GUK-holder),DRSC14768,1.99,1.02,inactive
gukh (GUK-holder),DRSC15806,1,8.16,inactive
gukh (GUK-holder),DRSC15944,2.58,1,inactive
Atg18b (Autophagy-related 18b),DRSC03108,5.55,10.2,inactive
Atg18b (Autophagy-related 18b),DRSC28594,14.1,11.8,inactive
His4r (Histone H4 replacement),DRSC16703,1.49,6.29,inactive
His4r (Histone H4 replacement),DRSC27569,18.5,10.2,inactive
CG15211,DRSC19657,6.29,2.91,inactive
fax (failed axon connections),DRSC11345,5.72,11.9,inactive
fax (failed axon connections),DRSC27842,18.8,29.5,inactive
smog,DRSC00334,31.5,7.74,inactive
smog,DRSC23053,2.81,11.4,inactive
smog,DRSC27223,15.1,28.9,inactive
